By UniProt entry, the sequences of proteins in these tests, tags left out. Where a name states a change or a piece, a line headed by the entry shows the natural chain unless it says otherwise.
UniProt Q5HN50: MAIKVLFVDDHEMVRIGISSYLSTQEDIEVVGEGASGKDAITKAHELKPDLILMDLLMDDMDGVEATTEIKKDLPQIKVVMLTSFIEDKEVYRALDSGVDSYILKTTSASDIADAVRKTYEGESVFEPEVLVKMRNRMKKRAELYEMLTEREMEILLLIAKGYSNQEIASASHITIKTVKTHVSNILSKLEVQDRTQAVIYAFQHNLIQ

According to paper PMC8550092:

Tests used:
[1] = target: VraR-P (phosphorylated His-tagged VraR) (Staphylococcus epidermidis strain 1457 (SE1457)) (UniProt Q5HN50); assay: EMSA; details: VraR-P 0.3-1.2 uM, Roche DIG gel shift kit (buffer, salt and pH not stated), 25 C, 20 min, 6% nondenaturing polyacrylamide gel, recombinant protein, residues 1-209, label: digoxigenin (terminal transferase), probe letters rebuilt from the primers and the genome
[2] = target: VraR-P (phosphorylated His-tagged VraR) (Staphylococcus epidermidis strain 1457 (SE1457)) (UniProt Q5HN50); assay: competition with a labelled probe; details: 125-fold excess vs labeled p-vra, 1.2 uM VraR-P, blocked complex; recombinant protein; residues 1-209; probe letters rebuilt from the primers and the genome

Sequence | binding result [1] | other results
ATTCTAAAATCTCCCCCTTATTCAATTTTCTAAAAATATATTACAGAAAAATTAAGTTAAAATTACAAATATTACTGTTTCAGTATAACAAC (double strand) [p-ica 3] | binds | –
ATTCTAAAATCTCCCCCTTATTCAATTTTCTAAAAATATATTACAGAAAAATTAAGTTAAAATTACAAATATTACTGTTTCAGTATAACAACATTCTATTGCAAATTGAAATACTTTCGATTAGCATATGCTTTACAACCTAACTAACGAAAGGTAGGTGAAAAAATGCA (double strand) [p-ica 2] | binds | –
ATTCTAAAATCTCCCCCTTATTCAATTTTCTAAAAATATATTACAGAAAAATTAAGTTAAAATTACAAATATTACTGTTTCAGTATAACAACATTCTATTGCAAATTGAAATACTTTCGATTAGCATATGCTTTACAACCTAACTAACGAAAGGTAGGTGAAAAAATGCATGTATTTAACTTTTTACTTTTCTATCCAATTTTTATGTCAATTTACTGGATAGTAGGATCGATTTACTATTTTTTTATTAAAGAAAAACCCTTTAATCGATCATTGTTAGTAAAATCTGAACATCAACAAG (double strand) [p-ica 1] | binds | –
TGAAACTAAAGATAAAAGTTATGTCGCTCAAATTGAACACACGGTTATAGTTACAAAAGATGGTCCGTTACTTACAACTAAGATTGATGATTAATTAAATATTAGTAATTCAAATTAGAAATTAAGATTATGATTTACTTTTTTCATATCTCGTCAGACTAAAGTATGAAGCATATATGGTTCCGAAGCCTATTTCATTAGGTTTCGGAATTGTTTTATAATAAAGCTTAATCAGTGACGAGGTGATATCATTGAATATTTTAGATTTATATTTACAACAA (double strand) [p-vra unlabeled competitor] | – | binding result [2]: binds
TGAAACTAAAGATAAAAGTTATGTCGCTCAAATTGAACACACGGTTATAGTTACAAAAGATGGTCCGTTACTTACAACTAAGATTGATGATTAATTAAATATTAGTAATTCAAATTAGAAATTAAGATTATGATTTACTTTTTTCATATCTCGTCAGACTAAAGTATGAAGCATATATGGTTCCGAAGCCTATTTCATTAGGTTTCGGAATTGTTTTATAATAAAGCTTAATCAGTGACGAGGTGATATCATTGAATATTTTAGATTTATATTTACAACAA (double strand) [p-vra] | – | binding result ([1]; dose-dependent): binds

Construct, isoform or probe ends are uncertain for at least one entry.
